Measured values as given in patent US20170298395A1, “AUTOTROPHIC HYDROGEN BACTERIA AND USES THEREOF” (Ohio State Innovation Foundation, priority 2011, published 2017).

System: Ralstonia eutropha

n-butanol
butanol concentration above which growth was not seen: above 0.6 % butanol (v/v) | butanol tolerance of isolates compared to wild type: over a six fold increase | butanol tolerated before growth was affected: about 0.8%
